PubChem BioAssay AID504761, Drosophila RNAi Screening Center, 2011

Purpose: 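Fly genes whose silencing reduces dengue virus type 2 infection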 (primary screen)
System: D.Mel-2 cells from Drosophila
Reagent: long dsRNA against Drosophila genes
Conditions: infection with dengue virus type 2; dose and infection time not stated
Read-out: 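Per well on two replicate plates, imaging gave the percent of cells positive for viral envelope protein, ranked by infection, and a nuclear count of cells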
Direction: infection score: higher = more virus-infected cells; cell count: higher = more cells in the well
Active means: 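Low infection ranks in the two replicates (chance level up to 0.065) followed by a retest with a 1.5-fold or larger significant decrease, p below 0.05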
Calls: active = confirmed: knock-down lowers infection; inactive = not picked or not confirmed
The screen tested about 22,000 reagents; this is a random part of those with a known target gene and a result. In the full data, 116 (0.52%) were called active. 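Calls depend on retest data that are not deposited; infection was ranked per plate without normalising between plates; the unit of the infection score is not given.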 Raw values are not corrected between plates. Entries without a mark were called inactive. A plus sign joins genes that one reagent is predicted to hit. The record does not give: the amount of reagent, the time to read-out.

| gene | DRSC id | infection score, replicate 1 | infection score, replicate 2 | cell count, replicate 1 | cell count, replicate 2 |
| --- | --- | --- | --- | --- | --- |
| CG3356 | DRSC04358 | 18.7 | 27.6 | 6266 | 5793 |
| CG3356 | DRSC28869 | 10.3 | 7.48 | 4997 | 2862 |
| Fili | DRSC04132 | 6.01 | 7.78 | 6470 | 7199 |
| Fili | DRSC04445 | 6.89 | 9.99 | 6703 | 6807 |
| asRNA:CR42547 + CG15674 | DRSC04264 | 10.9 | 20.6 | 4539 | 6151 |
| CG5895 | DRSC10554 | 1.65 | 2.48 | 6135 | 6413 |
| boca | DRSC06408 | 13.5 | 2.04 | 2655 | 7140 |
| CG11050 | DRSC02125 | 2.22 | 7.31 | 6261 | 3325 |
| CG11050 | DRSC23562 | 1.81 | 9.27 | 6088 | 6388 |
| CG11756 | DRSC19424 | 4.57 | 1.58 | 6517 | 6570 |
| CG11756 | DRSC30076 | 4.21 | 3.51 | 5815 | 5634 |
| Arms | DRSC03856 | 3.87 | 3.04 | 6537 | 6423 |
| Arms | DRSC03857 | 1.59 | 1.3 | 5672 | 5393 |
| Arms | DRSC04052 | 8.8 | 23.4 | 6947 | 5834 |
| Arms | DRSC04256 | 8.4 | 7.01 | 6776 | 6631 |
| Arms | DRSC28371 | 8.05 | – | 5130 | 374 |
| CG15194 (retired record) | DRSC19642 | 4.18 | 3.25 | 6319 | 6855 |
| CG15194 (retired record) | DRSC19777 | 1.78 | 1.02 | 6392 | 6755 |
| CG8915 | DRSC20119 | 3.73 | 45.7 | 6994 | 4813 |
| Jon99Fi | DRSC26496 | 3.42 | 1.46 | 5942 | 5953 |
| Tsp5D | DRSC18380 | 3.28 | 3.74 | 5822 | 5637 |
| nahoda | DRSC03954 | 3.96 | 0.82 | 5911 | 5757 |
| nahoda | DRSC04126 | 12.4 | 14.8 | 6169 | 6477 |
| CG9628 | DRSC11082 | 3.21 | 3.02 | 7010 | 7257 |
| CG9628 | DRSC26359 | 7.48 | 6.64 | 5359 | 6268 |
| bip1 | DRSC11327 | 2.28 | 4.69 | 6373 | 6417 |
| Rpt4R | DRSC10791 | 5.19 | 2.67 | 6122 | 6506 |
| Rpt4R | DRSC25928 | 0.9 | 0.68 | 5971 | 6571 |
| CG14042 + SP555 | DRSC02367 | 5.33 | 3.82 | 5944 | 6592 |
| CG14042 + SP555 | DRSC03428 | 3.27 | 21.8 | 6633 | 6310 |
| Karl | DRSC19883 | 8.63 | 6.05 | 6789 | 6512 |
| CG31677 | DRSC22023 | 4.38 | 9.38 | 6100 | 6570 |
| Nxt1 | DRSC04630 | 6.91 | 8.05 | 5386 | 6097 |
| Nxt1 | DRSC28865 | 10.6 | 4.58 | 1335 | 982 |
| CG8252 | DRSC07126 | 4.97 | 4.17 | 6435 | 6784 |
| CG8252 | DRSC29694 | 21.4 | 13.9 | 5901 | 5719 |
| S-Lap7 | DRSC06374 | 29.5 | 15.4 | 5560 | 6483 |
| S-Lap7 | DRSC27414 | 3.87 | 18.1 | 6823 | 5902 |
| CG4009 | DRSC15536 | 10.5 | 3 | 6464 | 6596 |
| Arp10 | DRSC19448 | 24.3 | 14.2 | 5953 | 2478 |
| Arp10 | DRSC28715 | 10.1 | 5.16 | 5983 | 6050 |
| Vps2 | DRSC14886 | 3.43 | 0.71 | 3843 | 4083 |
| Vps2 | DRSC27194 | 13.6 | 6.98 | 2982 | 3423 |
| CG14024 | DRSC00868 | 3.38 | 4.31 | 5942 | 6260 |
| CG14024 | DRSC02354 | 4.99 | 1.22 | 6151 | 6417 |
| CG11141 | DRSC06048 | 3.54 | 10.7 | 6774 | 4784 |
| CG2811 | DRSC04318 | 3.07 | 16.5 | 6652 | 5424 |
| CG34386 | DRSC06468 | 15.2 | 12.2 | 5884 | 6795 |
| CG34386 | DRSC23234 | 1.79 | 11.9 | 6831 | 7287 |
| CG34386 | DRSC29597 | – | 8.94 | 300 | 2741 |
| CG12920 | DRSC06234 | 23.9 | 14.4 | 6010 | 5608 |
| CngB | DRSC04297 | 5.8 | 13.8 | 6555 | 3687 |
| Rh4 + sina | DRSC11396 | 15.4 | 15.4 | 5746 | 5281 |
| tadr | DRSC03177 | 14.9 | 26.5 | 6596 | 5083 |
| CG13144 | DRSC02241 | 1.53 | 3.32 | 6260 | 6532 |
| CG15073 | DRSC06506 | 4.71 | 0.87 | 5603 | 6341 |
| CG15073 | DRSC27105 | 4.89 | 22.7 | 6768 | 6596 |
| Nepl14 | DRSC15631 | 2.3 | 7.03 | 6002 | 6440 |

5 of these entries, reformatted.
gene	DRSC id	infection score, replicate 1	infection score, replicate 2	cell count, replicate 1	cell count, replicate 2
Fili	DRSC04132	6.01	7.78	6470	7199
Fili	DRSC04445	6.89	9.99	6703	6807
asRNA:CR42547 + CG15674	DRSC04264	10.9	20.6	4539	6151
CG5895	DRSC10554	1.65	2.48	6135	6413
boca	DRSC06408	13.5	2.04	2655	7140
